Record: PubChem BioAssay AID1224833 (University of Georgia, 2016)

Purpose: 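Host factors restraining rotavirus as candidate antiviral genes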 (primary screen)
Cell system: monkey MA104 kidney cells
Knock-down reagent: siRNA pool against human genes, 50 nM
Timing: 48 h knock-down before infection; read 24 h after infection
Challenge: infection with rotavirus strain RV3 two days after transfection; infectious dose for this stage not given
Measured: 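Rotavirus antigen per well by fluorescent immunoassay, normalised to non-targeting control wells on each plate and given as a standard z-score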
Scale: z-score vs non-targeting control: higher = more rotavirus replication than with non-targeting control
Hit rule: In these data the active calls have z-score vs non-targeting control at about -1 or lower, or at about 1 or higher
Meaning of the calls: active = z-score beyond 1 either way; inactive = z-score within 1 of zero
The whole screen tested about 12,000 reagents; shown is a part drawn at random. About 5,600 of them (46%) count as active. 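Active calls cover z-scores past 1 in both directions, so they include lowered as well as raised rotavirus replication.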

With knock-down of HNRNPUL1, the screen gave z-score vs non-targeting control -0.278; inactive.
For MTRF1, the entry reads z-score vs non-targeting control -1.56; active.
LGALSL gave z-score vs non-targeting control -2.92; active.
After knock-down of TRIAP1, the record shows z-score vs non-targeting control 0.889; inactive.
TMEM184A gave z-score vs non-targeting control -0.571; inactive.
After knock-down of TSPAN14, the record shows z-score vs non-targeting control 0.325; inactive.
For SHISA5, the values are z-score vs non-targeting control -1.94; active.
CCDC61 gave z-score vs non-targeting control 2.54; active.
RPL17 gave z-score vs non-targeting control -2.62; active.
ZNF337 showed z-score vs non-targeting control -1.81; active.
MRPL11 scored z-score vs non-targeting control -1.56; active.
Knock-down of TNPO3 came out at: z-score vs non-targeting control -0.264; inactive.
MINDY1 scored z-score vs non-targeting control -0.88; inactive.
Knock-down of SIRT7 came out at: z-score vs non-targeting control -0.517; inactive.
For YTHDC1, the values are z-score vs non-targeting control 0.156; inactive.
CHST5 gave z-score vs non-targeting control 0.782; inactive.
Against DSG4 the deposit lists z-score vs non-targeting control 0.194; inactive.
Against LARS1, the values are z-score vs non-targeting control 2.64; active.
Silencing of CLEC5A came out at: z-score vs non-targeting control -0.854; inactive.

Individual results from the entries so far:
Entry for MINDY1 under “Outcome”: inactive
Entry for SIRT7 in “z-score vs non-targeting control”: -0.517
